Results as given in paper PMC5512693, “Bacterial RadA is a DnaB-type helicase interacting with RecA to promote bidirectional D-loop extension” (Nature Communications, 2017).

How the values were obtained:
[1] = tested on: RadA (Streptococcus pneumoniae (R800 derivative)); experiment: EMSA; conditions: 10 nM DNA, 10 mM Mg2+, 10 mM Mg(OAc)2, 0.1 mg/ml BSA, 8% glycerol, 1 mM DTT, 15 min 37 C, recombinant protein
[2] = tested on: RadA (Streptococcus pneumoniae (R800 derivative)); experiment: competition with a labelled probe; conditions: 5-20 nM Ovio8-Cy5 against 10 nM Ovio10-Cy3, 10 mM Mg2+; competition: 10 mM Tris-Cl pH 7.5, ~50 mM NaCl, 10 mM Mg(OAc)2; recombinant protein; label: 3' Cy5; single-stranded DNA

AATCATGGTCATAGCTGTTTCCTGTGTGAAATCACTGGCACTGGTAGAATTCGGCCCATTAGCAAGGCCGGAAACGTCACCCTCCAGTTTCTCGCCTCTG [Ovio10-Cy3]
binding result ([1]; 750 nM RadA, displaced by Ovio8-Cy5, 50 mM Tris-Cl pH 7.5, 100 mM NaCl, +/- 5 mM ATP, label: 3' Cy3, single-stranded DNA): binds

AATCATGGTCATAGCTGTTTCCTGTGTGAATAGCAATGTAATCGTCTATGACGTTAAACCATCGATAGCAGCACCGTAATCAGTAGCGACAGAATCAAGT (double strand) [D structure, 100-bp dsDNA (Ovio9-Cy3 + Olea41, inferred)]
binding result ([1]; 5 mM ATP, 50 mM Tris-Cl pH 7.5, 100 mM NaCl, label: 3' Cy3 on strand 1): binds more weakly | binding result ([1]; no ATP, slightly weaker than ssDNA, 50 mM Tris-Cl pH 7.5, 100 mM NaCl, +/- 5 mM ATP, label: 3' Cy3 on strand 1): binds

ACTTGATTCTGTCGCTACTGATTACGGTGCTGCTATCGATGGTTTAACGTCATAGACGATTACATTGCTAATTGTTATCCGCTCACAATTCCACACAACA [Ovio8-Cy5]
binding result [2]: binds

For at least one entry, the source does not settle the construct or the ends of the probe. For some of these results: A weaker result is weaker than the reference pair of the same experiment.
